This note sets out measurements from article PMC7954794, “Protein context shapes the specificity of SH3 domain-mediated interactions in vivo” (Nature Communications, 2021).

The amount applied is not stated for every result.

The chains are these.
B1: YMR216C (protein, UniProt Q03656 1-742, looked up)
Serine/threonine-protein …: MGSSINYPGFVTKSAHLADTSTDASISCEEATSSQEAKKNFFQRDYNMMKKAPAPTKSKLSLALQTSKSSSSANGTVQEDTSSKTEDFSTKSIKKKPDSGVESHVSIQSDSGPQSDSDLDSDSSISSCDERNEESLKDYRPGGYHPAFKGEPYKDARYILVRKLGWGHFSTVWLAKDMVNNTHVAMKIVRGDKVYTEAAEDEIKLLQRVNDADNTKEDSMGANHILKLLDHFNHKGPNGVHVVMVFEVLGENLLALIKKYEHRGIPLIYVKQISKQLLLGLDYMHRRCGIIHTDIKPENVLMEIGDVEGIVQMVEALDKQKREAKRLQRHVSRSSDITANDSSDEKWAECQTSMPCGSSSNSKSRSIEKDLSKRCFRRPRRHTIITGSQPLPSPISSSNFFEMRAHFCGSSHNSFSSVSGNRNIPSSINNNSINNGIGIKNSNNSFLNSVPHSVTRMFINEDSNDNNNNDNSKNKNNNNNNSNNNNNEDIMNTPLHEEQLADSLSTFDISNISQSSDTNGPYISNTMDSNSNVSTDINSPENLIQIKIADLGNACWYDEHYTNSIQTREYRSPEVLLGAPWGCGADIWSTACLIFELITGDFLFEPDEGHSYTKDDDHIAQIIELLGELPSYLLRNGKYTRTFFNSRGLLRNISKLKFWPLEDVLTEKYKFSKDEAKEISDFLSPMLQLDPRKRADAGGLVNHPWLKDTLGMEEIRVPDRELYGSGSDIPGWFEEVRDHKRH
B2: YBL007C (protein, UniProt P32790 1-1244, looked up)
Actin cytoskeleton-regulatory …: MTVFLGIYRAVYAYEPQTPEELAIQEDDLLYLLQKSDIDDWWTVKKRVIGSDSEEPVGLVPSTYIEEAPVLKKVRAIYDYEQVQNADEELTFHENDVFDVFDDKDADWLLVKSTVSNEFGFIPGNYVEPENGSTSKQEQAPAAAEAPAATPAAAPASAAVLPTNFLPPPQHNDRARMMQSKEDQAPDEDEEGPPPAMPARPTATTETTDATAAAVRSRTRLSYSDNDNDDEEDDYYYNSNSNNVGNHEYNTEYHSWNVTEIEGRKKKKAKLSIGNNKINFIPQKGTPHEWSIDKLVSYDNEKKHMFLEFVDPYRSLELHTGNTTTCEEIMNIIGEYKGASRDPGLREVEMASKSKKRGIVQYDFMAESQDELTIKSGDKVYILDDKKSKDWWMCQLVDSGKSGLVPAQFIEPVRDKKHTESTASGIIKSIKKNFTKSPSRSRSRSRSKSNANASWKDDELQNDVVGSAAGKRSRKSSLSSHKKNSSATKDFPNPKKSRLWVDRSGTFKVDAEFIGCAKGKIHLHKANGVKIAVAADKLSNEDLAYVEKITGFSLEKFKANDGSSSRGTDSRDSERERRRRLKEQEEKERDRRLKERELYELKKARELLDEERSRLQEKELPPIKPPRPTSTTSVPNTTSVPPAESSNNNNSSNKYDWFEFFLNCGVDVSNCQRYTINFDREQLTEDMMPDINNSMLRTLGLREGDIVRVMKHLDKKFGRENIASIPTNATGNMFSQPDGSLNVATSPETSLPQQLLPQTTSPAQTAPSTSAETDDAWTVKPASKSESNLLSKKSEFTGSMQDLLDLQPLEPKKAAASTPEPNLKDLEPVKTGGTTVPAAPVSSAPVSSAPAPLDPFKTGGNNILPLSTGFVMMPMITGGDMLPMQRTGGFVVPQTTFGMQSQVTGGILPVQKTGNGLIPISNTGGAMMPQTTFGAAATVLPLQKTGGGLIPIATTGGAQFPQTSFNVQGQQQLPTGSILPVQKTANGLISANTGVSMPTVQRTGGTMIPQTSFGVSQQLTGGAMMTQPQNTGSAMMPQTSFNAVPQITGGAMMPQTSFNALPQVTGGAMMPLQRTGGALNTFNTGGAMIPQTSFSSQAQNTGGFRPQSQFGLTLQKTGGIAPLNQNQFTGGAMNTLSTGGVLQQQQPQTMNTFNTGGVMQELQMMTTFNTGGAMQQPQMMNTFNTDGIMQQPQMMNTFNTGGAMQQPQQQALQNQPTGFGFGNGPQQSRQANIFNATASNPFGF
B3: YLR206W (protein, UniProt Q05785 1-613, looked up)
Epsin-2: MSKQFVRSAKNMMKGYSSTQVLVRDATANDSRTPSIDTLDDLAQRSYDSVDFFEIMDMLDKRLNDKGKYWRHVAKSLTVLDYLVRFGSENCVLWCRENFYVIKTLREFRHENESGFDEGQIIRVKAKELVSLLNDEERLREERSMNTRNRRANRAARPRPRRQRTRSNPHDSSPSYQDDLEKALEESRITAQEDEQRRRELAQYDDEDPDFQAALQLSKEEEELKQLQELQRLQKQQQSLSQFQAPLQQQQPQQQPAYYDIFGNPISQDEYLQYQYQQDQEQAMAQQRWLDQQQEQQQLAEQQYFQQQQQAAAAASALQQQQTAANMQQQQQQPADFQQPLPTGSNNPFSMDNLERQKQEQQHAQLQRQQEEARQQQEQLKLQQLQRQQQEEAQLHQKRQEEAQLQQQQAQLLQQQAQFQQQQPLKQTRTGNQSISDKYSDLNTLLATGTGIDTFGNTGEARIPAQHTKTGTFINSQGTGYKQVTNEPKNNPFLSNQYTGLPSTNIVPTQTGYGFGNQPQSPPTNSPQQNPTGISYSQPQQQQQPQQQPQYMQNFQQQQPQYAQNFQQQPQYTQNYQQQPQYIQPHQQQQQQQQQQQQQQGYTPDQGVSLIDL
B4: YNL084C (protein, UniProt P39013 1-349, looked up)
Actin cytoskeleton-regulatory …: MPKLEQFEIKKYWQIFSGLKPIENKVNHDQVLPILYNSKLDSSVLNKIWFLADIDDDDNLDFEEFVICMRLIFDMVNKNISSVPDELPDWLIPGSKVNLIKERKKRKQIENADLPPKKEIKVDWYMSPDDLNQYEKIYNSCAKLTDGTITFNELSTKLSTKFFNISKTDLNKVWSLINPQNLPSIDRDPTFYFIHCLRQRNDLGAEIPASLPNSLAEVCNKKQLSYDLRSSQPPTKRKEEANEVDNLRDNGQNSSSDSSGSNVLSNEDSIKQKYASLTDDQVANMREQLEGLLNYKKSEKTQGGSKLSKRINIRSITDDLDNIEQQVEVLENYLNNKRHELQALQAEIN
B5: YNL020C (protein, UniProt P53974 1-638, looked up)
Actin-regulating kinase 1: MNQPQIGTYNVGTQLTVGSHQVEIIKYLTSGGFAQVYSALINPPDPHSNSSVACLKRVIVPDKPSLNTLRAEVDAMRLLKNNRYVVSYIDSHAAKAMLHNGSYEVFVLMEYCERGGLIDFMNTRLQNRLHEFEILQIMSQVTQGVAAMHALQPPLIHRDIKIENVLISANNEYKLCDFGSVCGIIRPPRNSQELSYVQQDILKNTTAQYRSPEMIDTFRGLPIDEKSDIWALGIFLYKLCYYTTPFEKGGDLAILSGKFEFPLYPNYSEQLKGLIRDILVQDPRHRPNVYQLLKRISIMQNVPCPINDIQVVQAPSSHLNLTELHQLSATQNILSLNSPTTMENTMPNATFQISMADNTTTAQMHPNRKPSQIAYDASFSNSAKGSQPLFDKSQNMYHALDPPLVEPLASSVSNNDNELKANSATKLKQAIVSEAHTFRQNNSIDFPLQNIIPQYEDSSSSSDESYSGDVDELKKTRSLGSYSTRGNIKKNQSVKESLTSSSLPGTSFTPTSTKVNLKHENSPFKSTFVNTIDNSKDDLNKPSYEDLDVSKQNLKNSIQQRMIDKLNSSEESFNARKMSKVKLHEKGEIDKPTMLKSSGPISKDKKTKPTPPPKPSHLKPKPPPKPLLLAGRKLSLDK
B6: YLR337C (protein, UniProt P37370 1-817, looked up)
Verprolin: MAGAPAPPPPPPPPALGGSAPKPAKSVMQGRDALLGDIRKGMKLKKAETNDRSAPIVGGGVVSSASGSSGTVSSKGPSMSAPPIPGMGAPQLGDILAGGIPKLKHINNNASTKPSPSASAPPIPGAVPSVAAPPIPNAPLSPAPAVPSIPSSSAPPIPDIPSSAAPPIPIVPSSPAPPLPLSGASAPKVPQNRPHMPSVRPAHRSHQRKSSNISLPSVSAPPLPSASLPTHVSNPPQAPPPPPTPTIGLDSKNIKPTDNAVSPPSSEVPAGGLPFLAEINARRSERGAVEGVSSTKIQTENHKSPSQPPLPSSAPPIPTSHAPPLPPTAPPPPSLPNVTSAPKKATSAPAPPPPPLPAAMSSASTNSVKATPVPPTLAPPLPNTTSVPPNKASSMPAPPPPPPPPPGAFSTSSALSASSIPLAPLPPPPPPSVATSVPSAPPPPPTLTTNKPSASSKQSKISSSSSSSAVTPGGPLPFLAEIQKKRDDRFVVGGDTGYTTQDKQEDVIGSSKDDNVRPSPISPSINPPKQSSQNGMSFLDEIESKLHKQTSSNAFNAPPPHTDAMAPPLPPSAPPPPITSLPTPTASGDDHTNDKSETVLGMKKAKAPALPGHVPPPPVPPVLSDDSKNNVPAASLLHDVLPSSNLEKPPSPPVAAAPPLPTFSAPSLPQQSVSTSIPSPPPVAPTLSVRTETESISKNPTKSPPPPPSPSTMDTGTSNSPSKNLKQRLFSTGGSTLQHKHNTHTNQPDVDVGRYTIGGSNSIVGAKSGNERIVIDDSRFKWTNVSQMPKPRPFQNKTKLYPSGKGSSVPLDLTLFT
B7: YLR330W (protein, UniProt Q12114 1-671, looked up)
Chitin biosynthesis protein …: MSSVDVLLTVGKLDASLALLTTQDHHVIEFPTVLLPENVKAGSIIKMQVSQNLEEEKKQRNHFKSIQAKILEKYGTHKPESPVLKIVNVTQTSCVLAWDPLKLGSAKLKSLILYRKGIRSMVIPNPFKVTTTKISGLSVDTPYEFQLKLITTSGTLWSEKVILRTHKMTDMSGITVCLGPLDPLKEISDLQISQCLSHIGARPLQRHVAIDTTHFVCNDLDNEESNEELIRAKHNNIPIVRPEWVRACEVEKRIVGVRGFYLDADQSILKNYTFPPVNEEELSYSKENEPVAEVADENKMPEDTTDVEQVASPNDNESNPSEAKEQGEKSGHETAPVSPVEDPLHASTALENETTIETVNPSVRSLKSEPVGTPNIEENKADSSAEAVVEEPNEAVAESSPNEEATGQKSEDTDTHSNEQADNGFVQTEEVAENNITTESAGENNEPADDAAMEFGRPEAEIETPEVNESIEDANEPAEDSNEPVEDSNKPVKDSNKPVEDSNKPVEDSNKPVEDSNKPVEDANEPVEDTSEPVEDAGEPVQETNEFTTDIASPRHQEEDIELEAEPKDATESVAVEPSNEDVKPEEKGSEAEDDINNVSKEAASGESTTHQKTEASASLESSAVTEEQETTEAEVNTDDVLSTKEAKKNTGNSNSNKKKNKKNKKKGKKK
B8: YML035C (protein, UniProt P15274 1-810, looked up)
AMP deaminase: MDNQATQRLNDLSLEPAPSHDEQDGSGLVIDIDQRKIGDEQAGVVVDDETPPLEQQDSHESLAADSRNANFSYHENQQLLENGTKQLALDEHDSHSAILEQPSHSTNCSSSNIAAMNKGHDSADHASQNSGGKPRTLSASAQHILPETLKSFAGAPVVNKQVRTSASYKMGMLADDASQQFLDDPSSELIDLYSKVAECRNLRAKYQTISVQNDDQNPKNKPGWVVYPPPPKPSYNSDTKTVVPVTNKPDAEVFDFTKCEIPGEDPDWEFTLNDDDSYVVHRSGKTDELIAQIPTLRDYYLDLEKMISISSDGPAKSFAYRRLQYLEARWNLYYLLNEYQETSVSKRNPHRDFYNVRKVDTHVHHSACMNQKHLLRFIKHKLRHSKDEKVIFRDGKLLTLDEVFRSLHLTGYDLSIDTLDMHAHKDTFHRFDKFNLKYNPIGESRLREIFLKTNNYIKGTYLADITKQVIFDLENSKYQNCEYRISVYGRSLDEWDKLASWVIDNKVISHNVRWLVQIPRLYDIYKKTGIVQSFQDICKNLFQPLFEVTKNPQSHPKLHVFLQRVIGFDSVDDESKVDRRFHRKYPKPSLWEAPQNPPYSYYLYYLYSNVASLNQWRAKRGFNTLVLRPHCGEAGDPEHLVSAYLLAHGISHGILLRKVPFVQYLYYLDQVGIAMSPLSNNALFLTYDKNPFPRYFKRGLNVSLSTDDPLQFSYTREPLIEEYSVAAQIYKLSNVDMCELARNSVLQSGWEAQIKKHWIGKDFDKSGVEGNDVVRTNVPDIRINYRYDTLSTELELVNHFANFKRTIEEK

In the data set the test system is ABP1. Nature of the data set: DHFR-PCA on solid medium, bait ABP1 (Fig. 1B). It counts as cell-based, Saccharomyces cerevisiae. On the set-up: key: 0: SH3-independent; 1: SH3-dependent PPIs; 2: SH3-inhibited PPIs. The following applies: bait ABP1, label = prey. An excerpt: Supplement 41467_2021_21873_MOESM8_ESM.xlsx, sheet "Fig1B" | column: medsize; medrep; Ratio; Score
As to B1, the Score is given as 0.

In turn, B2 came in with a Score of 0.

B3 yielded a Score of 0.

B4: the Score is 0.

Molecule B5 showed a Score of 0.

B6 came in with a Score of 0.

With B7, the Score came to 0.

Take B8: the Score is recorded as 0.
